Measured values reported in patent US20250263469A1, “POLYPEPTIDES TARGETING SARS-COV-2 AND RELATED COMPOSITIONS AND METHODS” (HOSPITAL FOR SICK CHILDREN, published 2025).

What was measured:
[1] = target: T1, SARS-CoV-2 Spike on pseudotyped virus (PsV) (SARS-CoV-2, UniProt P0DTC2 14-1273); assay: cell-based or functional assay
[2] = target: T1, SARS-CoV-2 Spike on pseudotyped virus …; assay: cell-based or functional assay; remark: listed apart in the source
[3] = target: T2, SARS-CoV-2 receptor binding domain (RBD), wild type (BEI NR52309) (SARS-CoV-2, UniProt P0DTC2 319-541); assay: method and antibody format not given
[4] = target: T2, SARS-CoV-2 receptor binding domain …; assay: method and antibody format not given; remark: listed apart in the source

B1: mAb 80 (antibody, V domains shown)
VH: QVQLVQSGAEVKKPGSSVKVSCKASGGTFNRYAFSWVRQAPGQGLEWMGGIIPIFGTANYAQKFQGRVTITADESTSTAYMELSSLRSEDTAVYYCARSTRELPEVVDWYFDLWGRGTLVTVSS
VL: DIVMTQSPDSLAVSLGERATINCKSSQSVLYSSNNKNYLAWYQQKPGQPPKLLIYWASTRESGVPDRFSGSGSGTDFTLTISSLQAEDVAVYYCQQYYSAPLTFGGGTKVEIKR
IC50 SARS-CoV2 PsV, IgG [1]: 0.1 µg/mL
Median IC50, SARS-CoV-2 PsV neutralization [2]: 0.1 µg/mL
Kd [3]: 142 nM

B2: mAb 298 (antibody, V domains shown)
VH: QVQLVQSGAEVKKPGASVKVSCKASGGTFSTYGISWVRQAPGQGLEWMGWISPNSGGTDLAQKFQGRVTMTRDTSTSTVYMELSSLRSEDTAVYYCASDPRDDIAGGYWGQGTLVTVSS
VL: not shown
Median IC50, SARS-CoV-2 PsV neutralization [2]: 0.28 µg/mL
Kd [4]: 24 nM

Where two headings read alike, the source gives them in different places.
